Square brackets hold non-standard residues; d marks the D form. Peptide text beside a SMILES is read from it. Orn = NCCC[C@H](N)C(=O)O; Dab = NCC[C@H](N)C(=O)O; Aib = CC(C)(N)C(=O)O

The values that follow come from article PMC9854868, “Structure–Activity Relationship Studies of Substitutions of Cationic Amino Acid Residues on Antimicrobial Peptides” (Antibiotics, 2022).

This data set can be described thus: CD spectrometry, α-helix content. It is filed as physicochemical. Conditions: 20 mM phosphate buffer pH 7.4 with 1% SDS, peptide 100 µM, calculated from the CD spectra.
Turning to `CC[C@H](C)[C@H](NC(=O)CN)C(=O)N[C@@H](CCCCN)C(=O)N[C@@H](CCCCN)C(=O)N[C@@H](Cc1ccccc1)C(=O)N[C@@H](CC(C)C)C(=O)N[C@@H](CCCCN)C(=O)N[C@@H](CO)C(=O)NC(C)(C)C(=O)N[C@@H](CCCCN)C(=O)N[C@@H](CCCCN)C(=O)N[C@@H](Cc1ccccc1)C(=O)N[C@H](C(=O)N[C@@H](CCCCN)C(=O)NC(C)(C)C(=O)N[C@@H](Cc1ccccc1)C(=O)N[C@@H](CCCCN)C(N)=O)C(C)C` [Peptide 1] (H-GIKKFLKS[Aib]KKFVK[Aib]FK-NH2), the α-helix contents was 26.3%.
The same measure for `CC[C@H](C)[C@H](NC(=O)CN)C(=O)N[C@@H](CCCN)C(=O)N[C@@H](CCCN)C(=O)N[C@@H](Cc1ccccc1)C(=O)N[C@@H](CC(C)C)C(=O)N[C@@H](CCCN)C(=O)N[C@@H](CO)C(=O)NC(C)(C)C(=O)N[C@@H](CCCN)C(=O)N[C@@H](CCCN)C(=O)N[C@@H](Cc1ccccc1)C(=O)N[C@H](C(=O)N[C@@H](CCCN)C(=O)NC(C)(C)C(=O)N[C@@H](Cc1ccccc1)C(=O)N[C@@H](CCCN)C(N)=O)C(C)C` [Peptide 2] (H-GI[Orn][Orn]FL[Orn]S[Aib][Orn][Orn]FV[Orn][Aib]F[Orn]-NH2): 26.4%; for `CC[C@H](C)[C@H](NC(=O)CN)C(=O)N[C@@H](CCN)C(=O)N[C@@H](CCN)C(=O)N[C@@H](Cc1ccccc1)C(=O)N[C@@H](CC(C)C)C(=O)N[C@@H](CCN)C(=O)N[C@@H](CO)C(=O)NC(C)(C)C(=O)N[C@@H](CCN)C(=O)N[C@@H](CCN)C(=O)N[C@@H](Cc1ccccc1)C(=O)N[C@H](C(=O)N[C@@H](CCN)C(=O)NC(C)(C)C(=O)N[C@@H](Cc1ccccc1)C(=O)N[C@@H](CCN)C(N)=O)C(C)C` [Peptide 3] (H-GI[Dab][Dab]FL[Dab]S[Aib][Dab][Dab]FV[Dab][Aib]F[Dab]-NH2): 8.9%.
As to `CC[C@H](C)[C@H](NC(=O)CN)C(=O)N[C@@H](CCCNC(=N)N)C(=O)N[C@@H](CCCNC(=N)N)C(=O)N[C@@H](Cc1ccccc1)C(=O)N[C@@H](CC(C)C)C(=O)N[C@@H](CCCNC(=N)N)C(=O)N[C@@H](CO)C(=O)NC(C)(C)C(=O)N[C@@H](CCCNC(=N)N)C(=O)N[C@@H](CCCNC(=N)N)C(=O)N[C@@H](Cc1ccccc1)C(=O)N[C@H](C(=O)N[C@@H](CCCNC(=N)N)C(=O)NC(C)(C)C(=O)N[C@@H](Cc1ccccc1)C(=O)N[C@@H](CCCNC(=N)N)C(N)=O)C(C)C` [Peptide 4] (H-GIRRFLRS[Aib]RRFVR[Aib]FR-NH2), the α-helix contents is reported as 18.4%.
Turning to `CC[C@H](C)[C@H](NC(=O)CN)C(=O)N[C@@H](Cc1c[nH]cn1)C(=O)N[C@@H](Cc1c[nH]cn1)C(=O)N[C@@H](Cc1ccccc1)C(=O)N[C@@H](CC(C)C)C(=O)N[C@@H](Cc1c[nH]cn1)C(=O)N[C@@H](CO)C(=O)NC(C)(C)C(=O)N[C@@H](Cc1c[nH]cn1)C(=O)N[C@@H](Cc1c[nH]cn1)C(=O)N[C@@H](Cc1ccccc1)C(=O)N[C@H](C(=O)N[C@@H](Cc1c[nH]cn1)C(=O)NC(C)(C)C(=O)N[C@@H](Cc1ccccc1)C(=O)N[C@@H](Cc1c[nH]cn1)C(N)=O)C(C)C` [Peptide 5] (H-GIHHFLHS[Aib]HHFVH[Aib]FH-NH2), the α-helix contents is given as 10.1%.
